# Assay results as given in patent US10953028B2, “Method of treating heterotopic ossification” (THE REGENTS OF THE UNIVERSITY OF MICHIGAN, priority 2015, dated 2021).
# Key:
# [1] = tested on: burn/tenotomy mice; test: Burn/tenotomy trauma-induced HO model (microCT, histology, immunostaining); assay type: in vivo, mouse
# [2] = tested on: Nfatc1-Cre/caACVR1fl:wt mice; test: Genetic (congenital) HO model, ankle extra-skeletal bone by microCT
# [3] = tested on: Hif1α; test: Hif1α protein (Western blot) in tendon-derived mesenchymal cells cultured in hypoxia; assay type: cell-based, mouse; settings: PX-478 10 μM or rapamycin 5 μM, 0.5% oxygen
# [4] = 9 weeks, PX-478 100 mg/kg i.p., control = 1.0
smiles,measurement,setting,value
N[C@@H](Cc1ccc([N+]([O-])(CCCl)CCCl)cc1)C(=O)O,Hif1α expression in vivo,"[1]; 3 weeks after injury, PX-478",diminished
same,cartilage anlagen (histologic evaluation),"[1]; 3 weeks after injury, PX-478",substantial decrease
same,expression of Sox9 in vivo,"[1]; 3 weeks after injury, PX-478",considerably diminished
same,total HO volume,"[1]; 5 weeks after injury, PX-478 100 mg/kg i.p. every other day, control 4.3 mm^3",1.5 mm^3
same,total HO volume,"[1]; 9 weeks after injury, PX-478 100 mg/kg i.p. every other day, control 5.8 mm^3",2.3 mm^3
same,soft tissue HO volume,"[1]; 9 weeks, PX-478 100 mg/kg i.p. every other day, control 0.90 mm^3",0.00 mm^3
same,soft tissue HO normalized volume,[1]; [4],0.0
same,total HO normalized volume,[1]; [4],0.4
same,adverse effects on wound healing of the burn or hindlimb tenotomy sites,[1]; PX-478 100 mg/kg i.p. every other day,no adverse effects
same,"presence of mesenchymal progenitor cells and formation of mesenchymal condensation (H&E, PDGFRα and/or SOX9 immunostaining)","[1]; three weeks after burn/tenotomy, PX-478 or rapamycin treatment",substantially diminished
same,ankle extra-skeletal bone normalized volume,"[2]; PX-478 100 mg/kg every other day for 2 weeks, control = 1.0",0.32
same,ankle extra-skeletal bone volume,"[2]; PX-478 100 mg/kg every other day from birth for 2 weeks, 800 Hounsfield Units, control 6.8 mm^3",2.2 mm^3
same,Hif1α produced by mesenchymal cells isolated from tendon,[3],significantly diminished
